Anti-infective test results gathered from many reports (values: NIAID ChemDB through PubChem).

Shared fields: host cell toxicity; cell line: HEK 293; endpoint: CC50

CCn is the concentration with n% toxicity to the cells.

C=C/C(C)=C/C[C@H]1C(=C)CCC2[C@@](CCCCCCCCCCCCCCCCCCCC)(C(=O)O)CCC[C@@]21C ; result: 152.6 µg/mL
O=C(/C=C/C=C/c1ccccc1)[Se]c1ccccc1 ; read by: WST ; result: >100 µM
COc1ccc(-c2cc(OC)c(O)c(OC)c2O)cc1 ; read by: sulforhodamine / absorbance ; result: >50 µM
CCCCCCCC(=O)OC1O[C@@H]2OC3(C)CCC4[C@H](C)CCC([C@H]1C)[C@]42OO3 ; read by: ATP / luminescence ; result: >26 µM
CC(C)=CC[C@H]1C[C@@]2(C[C@H]3CCC(C)(C)C=C3C)C(=O)[C@](C(=O)c3ccccc3)(C(=O)C3=C2OC(C)(C)C=C3)C1(C)C ; read by: sulforhodamine / absorbance ; result: >50 µM
CC(CCN(CCC(C)c1ccccc1)c1ccc2nc(N)[nH]c2c1)c1ccccc1 ; result: 11 µM
COc1ccc(/C=C/C=C/C(=O)[Se]c2ccccc2)cc1 ; read by: WST ; result: >100 µM
NCCC1=c2c(O)c3c(c(O)c2N=C1)=NCCS3(=O)=O.O=C(O)C(F)(F)F ; read by: resazurin / fluorescence ; result: >40 µM
CC(C)=CC[C@H]1C[C@]2(C[C@H]3CCC(C)(C)C=C3C)C(=O)C3=C(OC(C)(C)CC3)[C@@](C(=O)c3ccccc3)(C2=O)C1(C)C ; read by: sulforhodamine / absorbance ; result: >50 µM
C[C@@H]1CCC2[C@@H](C)[C@@H](OCCNCCCn3ccnc3)O[C@@H]3OC4(C)CCC1[C@@]23OO4 ; read by: ATP / luminescence ; result: >22.7 µM
C[C@H]1[C@H](O)C(=O)CC2[C@]3(C)CC[C@@]4(C)C5CC(C)(C)CC[C@]5(C)CC[C@]4(C)C3CC[C@@]21C ; read by: sulforhodamine / absorbance ; result: >50 µM
C/C=C/c1ccc2c(c1)[C@H](C)[C@@H](c1ccc(OC)c(OC)c1)O2 ; read by: sulforhodamine / absorbance ; result: 47.5 µM
O=C(/C=C/c1ccc(O)c(O)c1)[Se]c1ccccc1 ; read by: WST ; result: 92.3 µM
O=C(NC(=S)Nc1ccc(Br)cn1)c1ccccc1[N+](=O)[O-] ; read by: MTT ; result: 62.6 µM
Cc1[nH]c2ccccc2c1CC(=O)NC(Cc1ccccc1)C(=O)N(C)c1ccccc1 ; read by: MTT ; result: >50 µM
CN1CCc2cn(C)c3c2C1=CC(=O)C3=O ; read by: resazurin ; result: >120 µM
CN[C@@H](CC1=c2c(O)c3c(c(O)c2N=C1)=NC=CS3(=O)=O)C(=O)O.O=C(O)C(F)(F)F ; read by: resazurin / fluorescence ; result: >40 µM
N=C(N)c1ccc2cc(C#Cc3cccc(OCc4ccccc4)c3)ccc2c1 ; result: 1.9 µM
O=C(/C=C/c1ccc(O)cc1)[Se]c1ccccc1 ; read by: WST ; result: >100 µM
C[C@@H]1CCC2[C@@H](C)[C@@H](OCCN3CCCCC3)O[C@@H]3OC4(C)CCC1[C@@]23OO4 ; read by: ATP / luminescence ; result: >31.7 µM
CC(/C=C/C=C(\C)CC(=O)O)=C\C=C\C=C(C)\C=C\C(C)=C(/C)C(=O)O ; read by: ATP ; result: >26 µM
O=C(O)C(=O)CC(=O)c1cc(OCc2ccccc2)cc(OCc2ccccc2)c1 ; result: >100 µM
CN1CCc2c[nH]c3c2C1=CC(=O)C3=O ; read by: resazurin ; result: >120 µM
Cc1ccc(/C=C/C=C/C(=O)[Se]c2ccccc2)cc1 ; read by: WST ; result: >100 µM
CC/C=C\C[C@H]1C(=O)CC[C@@H]1CC(=O)OC ; read by: ATP ; result: >26 µM
O=C(/C=C/C=C/c1ccc([N+](=O)[O-])cc1)[Se]c1ccccc1 ; read by: WST ; result: >100 µM
CC(CCN(CCC(C)CC(C)(C)C)c1ccc2nc(N)[nH]c2c1)CC(C)(C)C ; result: 21 µM
O=C1c2c(O)cc(O)cc2O[C@H](c2ccc(O)cc2)[C@H]1c1c(O)cc(O)c2c(=O)cc(-c3ccc(O)c(O)c3)oc12 ; read by: sulforhodamine / absorbance ; result: >50 µM
CC[C@H](/C=C/[C@@H](C)[C@H]1CCC2C3CC=C4C[C@@H](O)CC[C@]4(C)[C@@]3(C)CC[C@@]21C)C(C)C ; read by: ATP ; result: >26 µM
C[C@H]1C(OC(=O)c2ccccc2)O[C@@H]2OC3(C)CCC4[C@H](C)CCC1[C@]42OO3 ; read by: ATP / luminescence ; result: >26 µM

Again, the opening 2 rows:

smiles | read by | result
C=C/C(C)=C/C[C@H]1C(=C)CCC2[C@@](CCCCCCCCCCCCCCCCCCCC)(C(=O)O)CCC[C@@]21C |  | 152.6 µg/mL
O=C(/C=C/C=C/c1ccccc1)[Se]c1ccccc1 | WST | >100 µM

Lines come from different laboratories, so protocols vary. Blank or dashed fields: not listed here.